Data published in PubChem BioAssay AID624173 (National Center for Advancing Translational Sciences (NCATS), 2012).
The entries are a selection whose mix differs from that of the whole data set. Calls of active or inactive are those of the source. Calls follow the shape of the dose curve; as a rule, active = well fitted inhibition curve with a large enough effect; inconclusive = small, poorly fitted or top-dose-only effect; inactive = flat fitted curve, though single readings scatter.

These compounds were tested against pyruvate kinase (Trypanosoma brucei) (UniProt Q57TT1) (assay: qHTS of Trypanosoma Brucei Inhibitors). Details: TbPYK enzyme, Kinase-Glo Plus ATP luminescence, 45 min; at 76.8 µM (top of the series).
% is scaled to controls: 0 for no effect and ±100 for the full control effect.
Also: nearly all actives have a fitted effect of over 50% in size.

With `Cc1ccc(Nc2c([N+](=O)[O-])cc([N+](=O)[O-])cc2[N+](=O)[O-])cc1` as the compound, how does the activity, negative = inhibition read?
Its activity, negative = inhibition is inactive: 1.95%.

With `Cc1ccc(C(=O)NCC2(N3CCCCC3)CCCCC2)o1` as the compound, how does the activity, negative = inhibition read?
Its activity, negative = inhibition is inactive: -0.777%.

For `CCN1CCC(Nc2cccc(F)c2)CC1`, which activity, negative = inhibition is on record?
Its activity, negative = inhibition is inactive: 24.9%.

For `COc1ccc(C(c2nnnn2C2CCCCC2)N2CCC(n3c(=O)[nH]c4ccccc43)CC2)cc1` (configuration not stated), which activity, negative = inhibition is on record?
Its activity, negative = inhibition is inactive: 2.51%.

For `CC(C)(C)n1nnnc1C(c1ccnc2ccccc12)N1CCC(n2c(=O)[nH]c3ccccc32)CC1` (configuration not stated), which activity, negative = inhibition is on record?
The activity, negative = inhibition was inactive: 5.32%.

`Cc1ccccc1NC1(C#N)CCN(Cc2ccccc2)CC1` was tested. Which activity, negative = inhibition did it give?
The activity, negative = inhibition was inactive: -5.43%.

How did the activity, negative = inhibition turn out when `CN(C)c1ccc(C(=O)NCC2(N3CCCCC3)CCCCC2)cc1` was run?
The activity, negative = inhibition was inactive: 1.11%.

`Cn1c(=O)[nH]cc(N(CCCl)CCCl)c1=O` was tested. Which activity, negative = inhibition did it give?
Its activity, negative = inhibition is inactive: -5.55%.

Which activity, negative = inhibition does the source give for `O=C(NCC1(N2CCCCC2)CCCCC1)c1ccco1` here?
The activity, negative = inhibition was inactive: -2.77%.

With `CC(C)(C)c1ccc(C(=O)NCC2(N3CCOCC3)CCCCC2)cc1` as the compound, how does the activity, negative = inhibition read?
The activity, negative = inhibition was inactive: -0.445%.

Which activity, negative = inhibition does the source give for `Cc1ccccc1C(=O)NCC1(N(C)C)CCCCC1` here?
The activity, negative = inhibition was inactive: -3.66%.

For `CCOc1ccc(C)cc1CN(CCCl)CCCl`, which activity, negative = inhibition is on record?
Its activity, negative = inhibition is inactive: -2.13%.

For `O=C1CCN(Cc2ccccc2)CC1`, which activity, negative = inhibition is on record?
The activity, negative = inhibition was inactive: 3.9%.

Which activity, negative = inhibition does the source give for `O=C(NCC1(N2CCOCC2)CCCCC1)c1ccc(Cl)cc1` here?
Its activity, negative = inhibition is inactive: 4.59%.

With `CC(C)(C)n1nnnc1C(c1ccccc1)N1CCC(n2c(=O)[nH]c3ccccc32)CC1` (configuration not stated) as the compound, how does the activity, negative = inhibition read?
Its activity, negative = inhibition is inactive: 2.59%.

With `CCOC(=O)N1CCC(Nc2ccc(F)cc2)CC1` as the compound, how does the activity, negative = inhibition read?
Its activity, negative = inhibition is inactive: 4.57%.

`COc1ccc(NC2CCN(CCc3ccccc3)CC2)c(OC)c1` was tested. Which activity, negative = inhibition did it give?
Its activity, negative = inhibition is inactive: -18.1%.

`CCCCOc1ccc(C(=O)NCC2(N3CCOCC3)CCCCC2)cc1` was tested. Which activity, negative = inhibition did it give?
The activity, negative = inhibition was inactive: -0.113%.

With `CCCCn1nnnc1C(c1cc2ccccc2o1)N1CCC(n2c(=O)[nH]c3ccccc32)CC1` (configuration not stated) as the compound, how does the activity, negative = inhibition read?
Its activity, negative = inhibition is inactive: -0.0272%.

Which activity, negative = inhibition does the source give for `O=P1(N(CCCl)CCCl)SCCCS1` here?
The activity, negative = inhibition was inactive: -4.42%.

How did the activity, negative = inhibition turn out when `O=C(NCC1(N2CCCCC2)CCCCC1)c1ccc(F)cc1` was run?
Its activity, negative = inhibition is inactive: -9.65%.

`COc1ccccc1C(=O)NCC1(N2CCOCC2)CCCCC1` was tested. Which activity, negative = inhibition did it give?
Its activity, negative = inhibition is inactive: -1.35%.

Which activity, negative = inhibition does the source give for `O=c1[nH]c2ccccc2n1C1CCN(C(c2ccccc2)c2nnnn2C2CCCCC2)CC1` (configuration not stated) here?
Its activity, negative = inhibition is inactive: 2.19%.

How did the activity, negative = inhibition turn out when `O=c1[nH]c2ccccc2n1C1CCN(C(c2cccc3ccccc23)c2nnnn2C2CCCC2)CC1` (configuration not stated) was run?
Its activity, negative = inhibition is inactive: -0.793%.

Which activity, negative = inhibition does the source give for `CCOC(=O)N1CCC(Nc2cccc(C)c2)CC1` here?
Its activity, negative = inhibition is inactive: -0.488%.

`COc1cc(C(=O)NCC2(N(C)C)CCCCC2)ccc1OC(F)F` was tested. Which activity, negative = inhibition did it give?
Its activity, negative = inhibition is inactive: 1.18%.

Which activity, negative = inhibition does the source give for `O=C(NCC1(N2CCCCC2)CCCCC1)c1cccs1` here?
Its activity, negative = inhibition is inactive: -3.47%.

`CCCCn1nnnc1C(CC)N1CCC(n2c(=O)[nH]c3ccccc32)CC1` (configuration not stated) was tested. Which activity, negative = inhibition did it give?
Its activity, negative = inhibition is inactive: 5.57%.

Which activity, negative = inhibition does the source give for `CCCCn1nnnc1C(c1cccs1)N1CCC(n2c(=O)[nH]c3ccccc32)CC1` (configuration not stated) here?
Its activity, negative = inhibition is inactive: 5.43%.

How did the activity, negative = inhibition turn out when `O=C(NCC1(N2CCCCC2)CCCCC1)c1ccc(=O)[nH]c1` was run?
Its activity, negative = inhibition is inactive: 2.76%.

How did the activity, negative = inhibition turn out when `CC(C)(C)OC(=O)N1CCC(N(C(=O)c2ccccc2)c2ccc(F)cc2)CC1` was run?
Its activity, negative = inhibition is inactive: -1.3%.

With `COc1ccc(C(=O)NCC2(N3CCCCC3)CCCCC2)c(OC)c1OC` as the compound, how does the activity, negative = inhibition read?
Its activity, negative = inhibition is inactive: -1.57%.

Which activity, negative = inhibition does the source give for `CCC(c1nnnn1C1CCCC1)N1CCC(n2c(=O)[nH]c3ccccc32)CC1` (configuration not stated) here?
Its activity, negative = inhibition is inactive: -3.9%.

For `COc1ccc(C(=O)NCC2(N3CCCCC3)CCCCC2)cc1`, which activity, negative = inhibition is on record?
Its activity, negative = inhibition is inactive: 1.48%.

`Cc1cccc(NC2(C#N)CCN(Cc3ccccc3)CC2)c1` was tested. Which activity, negative = inhibition did it give?
The activity, negative = inhibition was inactive: 5.02%.

Which activity, negative = inhibition does the source give for `CSc1ccccc1C(=O)NCC1(N2CCCCC2)CCCCC1` here?
Its activity, negative = inhibition is inactive: -2.01%.

How did the activity, negative = inhibition turn out when `O=C(NCC1(N2CCOCC2)CCCCC1)c1cc2ccccc2o1` was run?
Its activity, negative = inhibition is inactive: -10.7%.

How did the activity, negative = inhibition turn out when `Cc1cc(C)cc(N(C(=O)c2ccccc2)C2CCN(C(=O)OC(C)(C)C)CC2)c1` was run?
Its activity, negative = inhibition is inactive: 2.84%.

Which activity, negative = inhibition does the source give for `O=C(NCC1(N2CCCCC2)CCCCC1)c1ccc(Cl)nc1` here?
Its activity, negative = inhibition is inactive: 3.5%.

`O=c1[nH]c2ccccc2n1C1CCN(C(c2ccccc2OC(F)(F)F)c2nnnn2C2CCCCC2)CC1` (configuration not stated) was tested. Which activity, negative = inhibition did it give?
The activity, negative = inhibition was inactive: 2.67%.

For `CCCCn1nnnc1C(c1ccc(OC)cc1)N1CCC(n2c(=O)[nH]c3ccccc32)CC1` (configuration not stated), which activity, negative = inhibition is on record?
The activity, negative = inhibition was inactive: 3.84%.

For `CCOC(=O)N1CCC(Nc2ccc(OC)cc2)CC1`, which activity, negative = inhibition is on record?
Its activity, negative = inhibition is inactive: -8.83%.

Which activity, negative = inhibition does the source give for `COc1ccc(Cl)cc1C(=O)NCC1(N2CCOCC2)CCCCC1` here?
The activity, negative = inhibition was inactive: -2.36%.

`O=C1C(O)=C([N+](=O)[O-])C(=O)C(O)=C1[N+](=O)[O-]` was tested. Which activity, negative = inhibition did it give?
Its activity, negative = inhibition is inactive: 5.9%.

For `O=C(NCC1(N2CCCCC2)CCCCC1)c1ccc(Cl)s1`, which activity, negative = inhibition is on record?
The activity, negative = inhibition was inactive: -3.69%.

`N#CC1(Nc2ccccc2)CCN(Cc2ccccc2)CC1` was tested. Which activity, negative = inhibition did it give?
Its activity, negative = inhibition is inactive: 9.34%.

With `O=c1[nH]c2ccccc2n1C1CCN(C(c2cc3ccccc3o2)c2nnnn2C2CCCCC2)CC1` (configuration not stated) as the compound, how does the activity, negative = inhibition read?
The activity, negative = inhibition was inactive: 1.04%.
